## Fitness of HIV-1 LAI Vif variants in SupT1-APOBEC3G cells

Values reported by Langley et al. 2025, preprint (doi:10.1101/2025.10.20.683452).

Protein: Vif of HIV-1 LAI (a laboratory-adapted subtype B strain). Residues 12-115 were scanned and are shown below; the first letter is residue 12.
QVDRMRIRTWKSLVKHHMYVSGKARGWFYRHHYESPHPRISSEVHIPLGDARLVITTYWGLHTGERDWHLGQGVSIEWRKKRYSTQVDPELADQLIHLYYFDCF

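A pool of vif mutants was passaged twice, 72 h each, on SupT1 cells that express APOBEC3G. Frequencies after the second round, in three biological replicates, were compared with the merged pool after the first round. The overlap of vif with pol had been removed, so integrase is unaffected.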

Values are log2 enrichment relative to wild type (0); lower means weaker defence against APOBEC3G and poorer growth.
Substitutions are written as wild-type residue, site number, new residue.
The median of three replicates is given.
Input reads are the counts in the merged round-one pool, before selection.

For R41E (input reads 171) the result was -0.82.
For A35H (input reads 112) the result was -0.81.
For M29K (input reads 840) the result was 1.74.
For R90S (input reads 655) the result was -2.49.
For R36W (input reads 39) the result was 0.16.
For I87P (input reads 807) the result was -4.71.
For V65G (input reads 71) the result was 0.17.
For F112D (input reads 430) the result was -1.75.
For H28K (input reads 165) the result was 2.75.
For M29N (input reads 331) the result was -1.95.
For L24Y (input reads 323) the result was -2.00.
For S23E (input reads 556) the result was -3.83.
For W79T (input reads 1352) the result was -2.15.
For K34W (input reads 529) the result was -3.24.
For A103Y (input reads 307) the result was -2.62.
For Y69E (input reads 510) the result was -1.04.
For E101I (input reads 898) the result was -2.43.
For G75W (input reads 1564) the result was -3.02.
For R17K (input reads 2386) the result was -1.03.
For Y30K (input reads 91) the result was 0.36.
For D104Y (input reads 2144) the result was -2.88.
For R41P (input reads 1370) the result was -1.88.
For F39W (input reads 36) the result was -2.99.
For R17Q (input reads 438) the result was -2.04.
For H42Q (input reads 1456) the result was -1.40.
For R77L (input reads 450) the result was -2.48.
For H27R (input reads 19) the result was 2.28.
For S86Q (input reads 935) the result was -4.03.
For E54T (input reads 401) the result was -0.69.
For Y40E (input reads 672) the result was -1.61.
For L24W (input reads 527) the result was -0.18.
For R19Y (input reads 1287) the result was -3.42.
For S53Y (input reads 346) the result was -2.95.
For F115M (input reads 128) the result was -0.74.
For Q12R (input reads 31) the result was -0.64.
For P47Q (input reads 447) the result was -3.17.
For H27L (input reads 417) the result was -3.08.
For Y69D (input reads 159) the result was 3.74.
For F112G (input reads 34) the result was 0.72.
For I66E (input reads 44) the result was 1.24.
For K26L (input reads 766) the result was -1.68.
For A103H (input reads 176) the result was -4.81.
For W21I (input reads 307) the result was -1.32.
For K92W (input reads 810) the result was -1.63.
For R77C (input reads 422) the result was -2.42.
For V55C (input reads 1120) the result was -2.12.
For F39A (input reads 212) the result was -4.31.
For K22H (input reads 434) the result was -2.90.
For L24H (input reads 489) the result was -2.36.
For V65T (input reads 368) the result was -3.09.

Excerpt, the final 7 entries:

| mutation | input reads | median score |
|---|---|---|
| K92W | 810 | -1.63 |
| R77C | 422 | -2.42 |
| V55C | 1120 | -2.12 |
| F39A | 212 | -4.31 |
| K22H | 434 | -2.90 |
| L24H | 489 | -2.36 |
| V65T | 368 | -3.09 |

Not every substitution is listed.
Replicates agree only moderately (rank correlation about 0.4-0.65); scores from under about 50 input reads tend to be too high.
Positive scores are uncertain; some enriched variants did not exclude APOBEC3G in a separate test.